Data as given in PubChem BioAssay AID504761 (Drosophila RNAi Screening Center, 2011).
In all, the deposit lists about 22,000 reagents; this is a random part of those that have a named target and a result. Over the whole deposit, 116 (0.52%) are marked active. 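Calls depend on retest data that are not deposited; infection was ranked per plate without normalising between plates; the unit of the infection score is not given.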 Not all columns of the deposit are shown. Not given: the amount of reagent, the time to read-out.

- Aim: 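Genome-wide fly cell screen for genes dengue virus requires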 (primary screen)
- Cells: D.Mel-2 cells from Drosophila
- Reagent: long dsRNA against Drosophila genes
- Challenge: infection with dengue virus type 2; dose and infection time not stated
- Detection: 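Cells stained for dengue envelope protein and imaged; percent of infected cells per well on duplicate plates, ranked by infection, with stained nuclei counted for cell number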
- Direction: infection score: higher = more virus-infected cells
- Active means: 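Low infection ranks in the two replicates (chance level up to 0.065) followed by a retest with a 1.5-fold or larger significant decrease, p below 0.05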
- Calls: active = confirmed: knock-down lowers infection; inactive = not picked or not confirmed

What is on record for Srp68 (Signal recognition particle 68) [DRSC10475]?
infection score, replicate 1: 6.12; outcome: inactive

With Srp68 (Signal recognition particle 68) [DRSC28655], what does the deposit list?
infection score, replicate 1: 3.06; outcome: inactive

With P58IPK [DRSC16404], what was measured?
infection score, replicate 1: 4.72; outcome: inactive

What is on record for P58IPK [DRSC27012]?
infection score, replicate 1: 15.1; outcome: inactive

For Cyp6t3 (Cytochrome P450 6t3) [DRSC07388], what was measured?
infection score, replicate 1: 7.75; outcome: inactive

For CG13258 [DRSC02244], what was measured?
infection score, replicate 1: 14.4; outcome: inactive

For sax (saxophone) [DRSC07675], what was measured?
infection score, replicate 1: 2.63; outcome: inactive

With sax (saxophone) [DRSC26844], what does the deposit list?
infection score, replicate 1: 19.2; outcome: inactive

Laid out differently: entries from further up
| gene | DRSC id | infection score, replicate 1 | outcome |
| --- | --- | --- | --- |
| CG13258 | DRSC02244 | 14.4 | inactive |
| sax (saxophone) | DRSC07675 | 2.63 | inactive |

The listing continues:
For ppk30 (pickpocket 30) [DRSC15302], how do the results read?
infection score, replicate 1: 9.28; outcome: inactive

What did the screen give for CG6843 [DRSC10725]?
infection score, replicate 1: 6.98; outcome: inactive

Which result is listed for CG6843 [DRSC29943]?
infection score, replicate 1: 16.9; outcome: inactive

What is on record for Alp2 (Alkaline phosphatase 2) [DRSC04354]?
infection score, replicate 1: 25.2; outcome: inactive

For Alp2 (Alkaline phosphatase 2) [DRSC26474], what was measured?
infection score, replicate 1: 7.33; outcome: inactive

For CG10226 [DRSC09715], what does the deposit list?
infection score, replicate 1: 3.35; outcome: inactive

How did the screen score otk (off-track) [DRSC07658]?
infection score, replicate 1: 6.38; outcome: inactive

Which result is listed for otk (off-track) [DRSC29192]?
infection score, replicate 1: 9.24; outcome: inactive

What did the screen give for CG34281 [DRSC14807]?
infection score, replicate 1: 2.02; outcome: inactive

For CG34281 [DRSC30111], what does the deposit list?
infection score, replicate 1: 3.41; outcome: inactive

How did the screen score RpL22 (Ribosomal protein L22) [DRSC18707]?
infection score, replicate 1: 2.81; outcome: inactive

Which result is listed for RpL22 (Ribosomal protein L22) [DRSC22819]?
infection score, replicate 1: 0.58; outcome: inactive

What did the screen give for CG17726 [DRSC15255]?
infection score, replicate 1: 2.98; outcome: inactive
